Data set [1] concerns the target T1, human ferritin heavy chain (human).
T1 construct: human ferritin heavy chain (FH); gene amplified by PCR from cDNA of human HT29 tumor cells; ≈21.1 kDa printed; The subunit as expressed alone or together with FL in E. coli; alone it forms the 24-subunit cage FHn-100 (labelled form: m3); The vector pET21a is named but no tag is stated; also called FH; source: E. coli BL21(DE3), purified (heat 60 °C, Superose 6 Increase SEC)
Description: SEC; subunits expressed alone or co-expressed in E. coli BL21(DE3) and assembled in the cells; soluble fraction heated at 60 °C for 15 min, Superose 6 Increase column; subunit ratios by SDS-PAGE; cages seen by TEM (negative stain). Conditions: both partners purified.

Data set [2] deals with the molecule itself. Described as above.

B1: human ferritin light chain (natural protein, UniProt P02792 1-175, looked up)
chain: MSSQIRQNYSTDVEAAVNSLVNLYLQASYTYLSLGFYFDRDDVALEGVSHFFRELAEEKREGYERLLKMQNQRGGRALFQDIKKPAEDEWGKTPDAMKAAMALEKKLNQALLDLHALGSARTDPHLCDFLETHFLDEEVKLIKKMGDHLTNLHRLGGPEAGLGEYLFERLTLKHD
notes: human ferritin light chain (FL); gene amplified by PCR from cDNA of human HT29 tumor cells; ≈19.9 kDa printed; The subunit as expressed alone or together with FH in E. coli; alone it forms the 24-subunit cage FHn-0 (labelled form: m7); also called FL; source: E. coli BL21(DE3), purified (heat 60 °C, Superose 6 Increase SEC)
Usually stoichiometry N stands for a count of units in the complex or per binding partner. In the case of B1, the binding result in data set [1] is reported as “binds”. In addition, the “stoichiometry N” value in data set [2] was 24 subunits.

The values are drawn from article PMC11077646 (Advanced Science, 2024).
